Anti-infective test results gathered from many reports (values: NIAID ChemDB through PubChem).

All rows: tests in culture; organism: Human cytomegalovirus; endpoint: EC50

Neighbouring rows are from separate reports.

| compound | strain | cell line | result |
|---|---|---|---|
| O[C@@H]1[C@H](O)[C@@H](CF)O[C@H]1n1c(Cl)nc2cc(Cl)c(Cl)cc21 |  | MRC-5 | 0.5 µM |
| Nc1ncnc2c1ccn2[C@H]1C[C@H](O)[C@@H](CO)O1 | DAVIS | HEL | >100 µM |
| Nc1ccn(C[C@@H](CO)OCP(=O)(O)O)c(=O)n1 |  | NHDF | 0.5 µM |
| CCCCCCCCCCCCSC[C@H](O)COP(=O)(O)C(=O)O |  | MRC-5 | 6.5 µM |
| Nc1nc(N)c2ncn(C[C@@H](CO)OCP(=O)(O)O)c2n1 |  |  | 7.8 µM |
| COc1cc(Cn2c(=O)ccn(CC#N)c2=O)cc(OC)c1 | AD169 |  | >166 µM |
| CC1(Cn2cnc3cnc(Cl)nc32)CC1CO |  |  | >100 µg/mL |
| CCCCCCCCSC[C@H](O)COP(=O)(O)C(=O)O |  | MRC-5 | 45 µM |
| O=C(NCc1ccc(Cl)cc1)c1cn2c(CO)cc3cc(CN4CCOCC4)cc(c1=O)c32 |  |  | 0.21 µM |
| OC[C@H]1O[C@@H](n2c(Cl)nc3cc(Cl)c(Cl)cc32)[C@H](O)[C@@H]1O |  |  | 2.9 µM |
| Nc1ccn([C@@H]2CS[C@H](CO)O2)c(=O)n1 |  | NHDF | >100 µM |
| O[C@@H]1[C@H](O)[C@H](O)CO[C@H]1n1c(Br)nc2cc(Cl)c(Cl)cc21 | AD169 | MRC-5 | 0.7 µM |
| Nc1ccn([C@@H]2C[C@@H](O)[C@H](CO)O2)c(=O)n1 |  | HFF | >100 µM |
| O=C(O)P(=O)(O)O |  |  | 15 µM |
| CCC#Cc1ccc2c(c1)c(=O)c(C(=O)NCc1ccc(Cl)cc1)nn2C |  |  | <20 µM |
| CC(=O)OC(SCCC(C)C)C(CC(C)C)NC(=O)[C@@H](NC(=O)[C@H](CCCN=C(N)NS(=O)(=O)c1ccc(C)cc1)NC(=O)OCc1cc(C)ccc1C)C(C)C |  |  | 0.028 µM |
| Cc1cc(C)nc(Cn2c(=O)ccn(Cc3c(F)cccc3F)c2=O)c1 | AD169 |  | >140 µM |
| Cc1cn([C@@H]2C[C@@H](O)[C@H](CO)O2)c(=O)[nH]c1=O |  | HFF | >100 µM |
| O=C(NCc1ccc(Cl)cc1)c1ccc2ccc(/C=C/c3ccccc3)nc2c1O |  |  | 170 µM |
| Cn1ccnc1SCC1Cn2cc(C(=O)NCc3ccc(Cl)cc3)c(=O)c3cc(CN4CCOCC4)cc(c32)O1 |  |  | 0.27 µM |
| C[C@H](N)C(=O)OCP(=O)(OC[C@H]1O[C@@H](n2cc(/C=C/Br)c(=O)[nH]c2=O)C[C@@H]1O)Oc1ccccc1 | DAVIS | HEL | >20 µM |
| O=C1NC(=O)c2c1c1c3ccccc3[nH]c1c1c2c2ccccc2n1Cc1ccccc1 |  | VERO | >10 µM |
| N#CCn1ccc(=O)n(Cc2cc(F)cc(F)c2)c1=O | AD169 |  | >180 µM |
| N#Cc1cn([C@@H]2O[C@H](CO)[C@@H](O)[C@@H]2O)c2ncnc(N)c12 | TOWNE | HFF | 4.1 µM |
| CCCCCCCCCc1cc2cn([C@H]3CC[C@@H](CO)O3)c(=O)nc2o1 |  |  | 1.2 µM |
| OC[C@H]1O[C@@H](n2c(Cl)nc3cc(Cl)c(Cl)cc32)[C@@H](F)[C@@H]1O |  |  | 13 µM |
| Nc1ccnc2c1ncn2C1CC(O)C(CO)O1 | AD169 | HEL | >100 µM |
| O=c1[nH]c(=O)n([C@@H]2O[C@H](CO)[C@@H](O)[C@@H]2O)cc1/C=C/Br |  |  | >100 µM |
| Nc1ncnc2c1ccn2[C@H]1C[C@H](O)[C@@H](COP(=O)(O)COC(=O)[C@@H](N)CC(=O)O)O1 | AD169 | HEL | >100 µM |
| OC[C@@H]1O[C@@H](n2c(Br)nc3ccccc32)[C@H](O)[C@@H]1O | AD169 |  | 0.8 µM |
| Nc1ncnc2c1ncn2[C@H]1C[C@H](O)[C@@H](COP([O-])(=S)O[C@H]2C[C@H](n3ccc(=O)[nH]c3=O)O[C@@H]2CO)O1 | AD169 |  | >20 µM |
| CCCCCCCCCCCCCCCCCCSC[C@H](O)COP(=O)(O)C(=O)O |  | MRC-5 | 0.71 µM |
| C=C1[C@H](CO)[C@@H](O)C[C@@H]1n1cnc2c(=O)[nH]c(N)nc21 | AD169 | HFF | 15 µM |
| Nc1ncc2c(ncn2COC(CO)CO)n1 |  |  | 0.12 µM |
| Nc1ncnc2c1ccn2[C@@H]1O[C@H](CO)[C@@H](O)[C@@H]1O | TOWNE | HFF | >100 µM |
| C[C@H](N)C(=O)OCP(=O)(OC[C@H]1O[C@@H](n2cnc3c(Cl)nccc32)C[C@@H]1O)Oc1ccccc1 | DAVIS | HEL | >100 µM |
| C#CCn1ccc(=O)n(Cc2cc(C)cc(C)c2)c1=O | AD169 |  | >75 µM |
| CCCCCCCCCCCCCCCCCCCCCCSC[C@H](O)COP(=O)(O)C(=O)O |  | MRC-5 | 2.6 µM |
| CC1(Cn2cnc3c(N)nc(Cl)nc32)CC1CO |  |  | >100 µg/mL |
| Nc1ncnc2c1ncn2C[C@H]1COP(=O)(O)CO1 |  |  | 0.1 µM |
| Cc1ccc(S(=O)(=O)NC(N)=NCCC[C@H](NC(=O)OCc2cc(C)ccc2C)C(=O)N[C@H](C(=O)NC(C=O)CC(C)C)C(C)C)cc1 |  |  | 0.007 µM |
| CC(C)(C)C(=O)OCOC(=O)CN(CC(=O)OCOC(=O)C(C)(C)C)P(=O)(OC[C@H]1O[C@@H](n2cnc3c(Cl)nccc32)C[C@@H]1O)Oc1ccccc1 | AD169 | HEL | >100 µM |

A second listing of 5 rows from above:

Cc1cc(C)nc(Cn2c(=O)ccn(Cc3c(F)cccc3F)c2=O)c1 ; strain: AD169 ; result: >140 µM
O=c1[nH]c(=O)n([C@@H]2O[C@H](CO)[C@@H](O)[C@@H]2O)cc1/C=C/Br ; result: >100 µM
OC[C@@H]1O[C@@H](n2c(Br)nc3ccccc32)[C@H](O)[C@@H]1O ; strain: AD169 ; result: 0.8 µM
Nc1nc(N)c2ncn(C[C@@H](CO)OCP(=O)(O)O)c2n1 ; result: 7.8 µM
CCCCCCCCCCCCCCCCCCSC[C@H](O)COP(=O)(O)C(=O)O ; cell line: MRC-5 ; result: 0.71 µM

Blank or dashed fields: not listed here. ECn is the concentration giving n% inhibition of infection, replication or growth.